System: HIV-1 AZT^res
Assay: in vitro anti-HIV activity, AZT resistant HIV-1
Type: cell-based

SMILES: COc1c(O)cc(C2COc3cc(O)cc(O)c3C2=O)cc1CC=C(C)C (racemic) [PMZ-1]
- activity against azidothymidine resistant virus: active
